# Biological target: N-type calcium channel (CaV2.2) (Homo sapiens, UniProt Q00975)
# Amino acid sequences for entries named in this document (tags omitted). Residues count along the entry.
# UniProt Q00975, whole entry: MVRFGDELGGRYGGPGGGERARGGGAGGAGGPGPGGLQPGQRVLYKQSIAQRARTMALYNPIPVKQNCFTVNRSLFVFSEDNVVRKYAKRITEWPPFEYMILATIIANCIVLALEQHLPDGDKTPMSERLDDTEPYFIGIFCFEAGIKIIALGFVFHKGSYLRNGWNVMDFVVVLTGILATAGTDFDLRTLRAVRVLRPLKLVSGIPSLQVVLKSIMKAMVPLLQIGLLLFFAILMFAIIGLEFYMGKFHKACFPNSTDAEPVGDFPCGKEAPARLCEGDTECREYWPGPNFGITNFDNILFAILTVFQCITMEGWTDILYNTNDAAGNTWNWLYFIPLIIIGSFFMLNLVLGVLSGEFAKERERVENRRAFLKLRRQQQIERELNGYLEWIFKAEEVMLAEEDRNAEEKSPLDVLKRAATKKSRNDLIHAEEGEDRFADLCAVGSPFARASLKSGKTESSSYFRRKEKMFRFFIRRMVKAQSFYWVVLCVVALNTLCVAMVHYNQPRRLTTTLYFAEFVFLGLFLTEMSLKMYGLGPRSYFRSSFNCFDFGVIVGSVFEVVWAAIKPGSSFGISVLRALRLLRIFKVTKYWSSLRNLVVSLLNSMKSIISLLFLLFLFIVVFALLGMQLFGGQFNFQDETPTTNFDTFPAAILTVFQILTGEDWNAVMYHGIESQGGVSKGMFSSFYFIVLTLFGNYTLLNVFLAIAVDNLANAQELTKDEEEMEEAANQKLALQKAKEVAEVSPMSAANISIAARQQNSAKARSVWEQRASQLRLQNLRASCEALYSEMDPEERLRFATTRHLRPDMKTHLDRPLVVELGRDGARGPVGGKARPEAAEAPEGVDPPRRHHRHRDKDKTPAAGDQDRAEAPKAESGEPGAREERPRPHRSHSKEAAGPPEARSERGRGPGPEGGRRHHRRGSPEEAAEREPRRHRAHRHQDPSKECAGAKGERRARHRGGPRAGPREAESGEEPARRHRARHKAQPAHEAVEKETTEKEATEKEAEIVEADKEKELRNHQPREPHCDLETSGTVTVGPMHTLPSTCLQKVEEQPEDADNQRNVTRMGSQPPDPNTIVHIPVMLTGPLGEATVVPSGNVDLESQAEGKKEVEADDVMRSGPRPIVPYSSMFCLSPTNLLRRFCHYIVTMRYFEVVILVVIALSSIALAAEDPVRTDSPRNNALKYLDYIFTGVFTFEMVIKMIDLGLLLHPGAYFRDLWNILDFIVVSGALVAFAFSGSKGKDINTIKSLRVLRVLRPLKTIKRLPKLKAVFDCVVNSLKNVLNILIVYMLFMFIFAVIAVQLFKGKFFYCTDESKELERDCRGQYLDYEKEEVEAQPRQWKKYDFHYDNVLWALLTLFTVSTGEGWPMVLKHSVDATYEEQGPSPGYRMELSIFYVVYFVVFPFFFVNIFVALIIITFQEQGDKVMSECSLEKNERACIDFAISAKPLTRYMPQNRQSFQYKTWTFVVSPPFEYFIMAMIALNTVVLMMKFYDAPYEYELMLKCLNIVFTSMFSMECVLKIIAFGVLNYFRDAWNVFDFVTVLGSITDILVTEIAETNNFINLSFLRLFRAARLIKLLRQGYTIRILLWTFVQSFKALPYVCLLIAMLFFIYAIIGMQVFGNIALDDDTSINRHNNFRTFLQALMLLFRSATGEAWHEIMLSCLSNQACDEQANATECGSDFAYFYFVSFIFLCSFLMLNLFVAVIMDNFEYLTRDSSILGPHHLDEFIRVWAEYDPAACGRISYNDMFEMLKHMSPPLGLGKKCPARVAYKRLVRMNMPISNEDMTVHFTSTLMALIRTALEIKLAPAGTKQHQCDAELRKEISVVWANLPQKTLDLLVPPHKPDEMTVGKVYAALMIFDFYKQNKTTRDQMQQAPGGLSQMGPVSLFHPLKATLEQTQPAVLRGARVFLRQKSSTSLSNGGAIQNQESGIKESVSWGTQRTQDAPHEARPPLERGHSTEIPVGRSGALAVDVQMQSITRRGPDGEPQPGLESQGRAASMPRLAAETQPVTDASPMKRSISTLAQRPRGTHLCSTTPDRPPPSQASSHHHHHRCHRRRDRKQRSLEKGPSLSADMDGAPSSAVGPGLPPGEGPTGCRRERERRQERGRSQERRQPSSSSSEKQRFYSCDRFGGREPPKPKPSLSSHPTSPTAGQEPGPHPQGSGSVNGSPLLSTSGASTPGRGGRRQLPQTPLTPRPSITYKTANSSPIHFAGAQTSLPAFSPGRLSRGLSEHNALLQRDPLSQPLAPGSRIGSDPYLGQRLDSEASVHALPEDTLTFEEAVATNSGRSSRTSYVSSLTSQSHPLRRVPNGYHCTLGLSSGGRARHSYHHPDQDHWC
# UniProt P54289, 25-1103 partner limits assumed: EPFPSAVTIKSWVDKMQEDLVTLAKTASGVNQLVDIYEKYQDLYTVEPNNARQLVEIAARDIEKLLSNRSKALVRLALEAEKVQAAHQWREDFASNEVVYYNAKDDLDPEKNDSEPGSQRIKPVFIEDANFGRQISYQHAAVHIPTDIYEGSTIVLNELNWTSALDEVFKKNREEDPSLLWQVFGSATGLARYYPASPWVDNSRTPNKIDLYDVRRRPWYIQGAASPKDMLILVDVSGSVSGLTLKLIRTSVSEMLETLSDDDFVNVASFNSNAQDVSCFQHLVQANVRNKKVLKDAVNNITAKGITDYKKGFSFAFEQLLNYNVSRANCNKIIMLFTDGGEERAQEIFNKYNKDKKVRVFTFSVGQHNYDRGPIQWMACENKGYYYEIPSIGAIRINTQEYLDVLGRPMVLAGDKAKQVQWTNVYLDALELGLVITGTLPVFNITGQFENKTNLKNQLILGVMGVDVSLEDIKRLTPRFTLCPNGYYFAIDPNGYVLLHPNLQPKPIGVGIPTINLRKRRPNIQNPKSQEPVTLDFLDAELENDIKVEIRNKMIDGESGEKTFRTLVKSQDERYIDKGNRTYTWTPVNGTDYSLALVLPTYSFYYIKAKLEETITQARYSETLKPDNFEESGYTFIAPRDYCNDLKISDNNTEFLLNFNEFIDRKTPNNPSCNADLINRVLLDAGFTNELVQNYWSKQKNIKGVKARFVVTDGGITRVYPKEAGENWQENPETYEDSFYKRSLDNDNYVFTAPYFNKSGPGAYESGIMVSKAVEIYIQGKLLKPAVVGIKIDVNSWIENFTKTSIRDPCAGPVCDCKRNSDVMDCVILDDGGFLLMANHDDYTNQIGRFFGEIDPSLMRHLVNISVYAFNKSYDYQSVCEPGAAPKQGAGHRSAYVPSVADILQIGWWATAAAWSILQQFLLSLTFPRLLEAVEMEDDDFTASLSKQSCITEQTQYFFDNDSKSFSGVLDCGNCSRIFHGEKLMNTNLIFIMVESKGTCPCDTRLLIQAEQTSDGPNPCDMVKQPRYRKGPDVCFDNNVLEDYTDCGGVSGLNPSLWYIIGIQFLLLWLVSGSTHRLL
# UniProt Q08289, whole entry partner: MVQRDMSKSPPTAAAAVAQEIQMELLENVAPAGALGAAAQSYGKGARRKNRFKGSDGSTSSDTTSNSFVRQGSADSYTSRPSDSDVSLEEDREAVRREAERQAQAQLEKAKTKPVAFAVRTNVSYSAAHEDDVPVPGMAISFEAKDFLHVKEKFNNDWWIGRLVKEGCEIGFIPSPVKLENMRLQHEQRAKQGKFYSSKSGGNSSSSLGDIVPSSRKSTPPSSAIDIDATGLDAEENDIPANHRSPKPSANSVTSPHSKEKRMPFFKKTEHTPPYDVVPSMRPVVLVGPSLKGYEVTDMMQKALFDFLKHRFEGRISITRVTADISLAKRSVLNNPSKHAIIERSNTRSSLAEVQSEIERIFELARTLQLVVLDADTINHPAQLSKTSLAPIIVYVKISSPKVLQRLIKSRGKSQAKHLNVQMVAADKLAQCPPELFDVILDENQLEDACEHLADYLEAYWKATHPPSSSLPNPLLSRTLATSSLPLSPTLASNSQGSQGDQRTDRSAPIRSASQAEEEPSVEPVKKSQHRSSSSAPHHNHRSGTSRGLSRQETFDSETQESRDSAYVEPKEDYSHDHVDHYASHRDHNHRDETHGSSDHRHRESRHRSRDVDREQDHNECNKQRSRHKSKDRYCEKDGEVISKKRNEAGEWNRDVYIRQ
# Format: cell-based
substance,measurement,value
ω-conotoxin GVIA,"blocking time constant τ, GVIA versus Sec-GVIA",not statistically different
